Pooled drug test results. Numbers come from NIAID ChemDB, via PubChem.

Shared fields: whole-cell or culture tests; organism: HIV-1; cells: MT-2; read-out: EC50

Lines come from different laboratories, so protocols vary.

compound,strain,mutations,method,setting,result
O=C1Nc2ccc(Cl)cc2[C@@](C#CC2CC2)(C(F)(F)F)[C@H]1OCc1ccccc1F,RF,,,,<0.14 µM
CC(C)[C@H](NC(=O)[C@H](Cc1ccc(O)cc1)C[C@H](O)[C@H](Cc1ccccc1)NC(=O)OC(C)(C)C)C(=O)N[C@@H](Cc1ccccc1)C(=O)N1CCOCC1,MN,,RT activity,,<0.3 µM
CC(C)CN(C[C@@H](O)[C@H](Cc1ccccc1)NC(=O)[C@@H](NC(=O)CCNC(C)(C)c1ccccc1)C(C)(C)C)S(=O)(=O)c1ccc(N)cc1,RF,,,,<1 µM
COCCNC(=O)[C@@H](NC(=O)[C@H](Cc1ccccc1)C[C@H](O)[C@H](Cc1ccccc1)NC(=O)OC(C)(C)C)C(C)C,MN,,RT activity,,<0.1 µM
CC1(C)CC(NC(=O)C(=O)Nc2ccc(Br)cc2)CC(C)(C)N1,V32,,p24,,4.43 µM
Cc1ccc(C(=O)N2CCN(C(=O)C(=O)c3c[nH]c4ccccc34)CC2)cc1,BRU,,RT activity,,<10 µM
CC(C)=CCOc1cc(Nc2nccc(CO)n2)ccc1Cl,IIIB,,cytopathic effect / MTT,,>0.22 µM
O=C1Nc2ccc(Cl)cc2[C@@](C#CC2CC2)(C(F)(F)F)[C@H]1OCc1ccccc1,RF,,,,<0.071 µM
CNC(=O)c1c(O)c2ncc(Cc3ccc(F)cc3)c3c2n(c1=O)C[C@](C)(C(=O)NCC(F)(F)F)O3,IIIB,,ATP / luminescence,,0.024 µM
O=C1CC(C#CC2CC2)(C(F)(F)F)c2cc(Cl)ccc2N1,,RT-L100I,,,<0.992 µM
CC(C)C1=C2[C@H]3CC[C@@H]4[C@@]5(C)CC[C@H](OC(=O)[C@H]6C[C@@H](C(=O)O)C6(C)C)C(C)(C)[C@@H]5CC[C@@]4(C)[C@]3(C)CC[C@@]2(CCNCC(F)NC(=O)c2ccc(Cl)cc2)CC1=O,92HT599,,p24 / ELISA,,<1 µM
Cc1cc(CNC(=O)c2nc3n(c(=O)c2O)CC2CCC3(NC(=O)[C@H]3CCN3C(=O)O)CC2)ccc1F,NL4-3,(delta)nef,luciferase,pseudotyped,<0.01 µM
O=C(C(=O)N1CCN(C(=O)c2ccccc2)CC1)c1c[nH]c2cc(F)ccc12,BRU,,RT activity,,<10 µM
Clc1ccc(Nc2nccs2)cc1OCc1nccs1,IIIB,,cytopathic effect / MTT,,>20 µM
O=C1Nc2ccc(Cl)cc2[C@@](C#CC2CC2)(C(F)(F)F)[C@H]1OCc1cccnc1,RF,,,,<0.02 µM
COCCNC(=O)c1c(O)c2ncc(Cc3ccc(F)cc3)c3c2n(c1=O)C[C@H](CN1CCOCC1(C)C)O3,IIIB,,ATP / luminescence,,0.0089 µM
CC(C)CN(C[C@@H](O)[C@H](Cc1ccccc1)NC(=O)[C@@H](NC(=O)CNC(C)(C)c1cccc(F)c1)C(C)(C)C)S(=O)(=O)c1ccc2ncsc2c1,RF,,,,<1 µM
N#C/C=C/c1cccc(Oc2cc(Nc3nccc(C4CC4)n3)ccc2C#N)c1,IIIB,,MTT,,0.032 µM
CC(C)CN(C[C@@H](O)[C@H](Cc1ccccc1)NC(=O)[C@@H](NC(=O)[C@@H](C)NC(C)(C)c1ccccc1)C(C)(C)C)S(=O)(=O)c1ccc(N)cc1,RF,,,,<1 µM
CC(C)C1=C2[C@H]3CC[C@@H]4[C@@]5(C)CC[C@H](OC(=O)[C@H]6C[C@@H](C(=O)O)C6(C)C)C(C)(C)[C@@H]5CC[C@@]4(C)[C@]3(C)CC[C@@]2(CCNCc2ccccn2)CC1=O,92HT599,,p24 / ELISA,,<1 µM
CNC(=O)[C@H]1Cn2c(=O)c(C(=O)NCCO)c(O)c3ncc(Cc4ccc(F)cc4)c(c32)O1,IIIB,,ATP / luminescence,,0.039 µM
COCCNC(=O)[C@@H](NC(=O)[C@H](Cc1ccc(O)cc1)C[C@H](O)[C@H](Cc1ccccc1)NC(=O)OC(C)(C)C)C(C)C,MN,,RT activity,,<0.3 µM
O=C(C(=O)N1CCN(C(=O)c2ccccc2F)CC1)c1c[nH]c2ccccc12,BRU,,RT activity,,<10 µM
CNC(=O)[C@H]1Cn2c(=O)c(C(=O)NCCC#N)c(O)c3ncc(Cc4ccc(F)cc4)c(c32)O1,IIIB,,ATP / luminescence,,0.041 µM
CC(C)C1=C2[C@H]3CC[C@@H]4[C@@]5(C)CC[C@H](OC(=O)[C@H]6C[C@@H](C(=O)O)C6(C)C)C(C)(C)[C@@H]5CC[C@@]4(C)[C@]3(C)CC[C@@]2([C@@H](O)CNC(=O)c2nccn2C)CC1=O,92HT599,,p24 / ELISA,,<1 µM
CC(C)[C@H](NC(=O)[C@H](Cc1ccc2c(c1)OCO2)C[C@H](O)[C@H](Cc1ccccc1)NC(=O)OC(C)(C)C)C(=O)N[C@@H](Cc1ccccc1)C(=O)N1CCOCC1,MN,,RT activity,,<0.01 µM
CN(C)C(=O)C(=O)NC12CCC(CC1)Cn1c2nc(C(=O)NCc2cccnc2)c(O)c1=O,NL4-3,(delta)nef,luciferase,pseudotyped,<0.01 µM
COc1ccnc(Nc2ccc(Cl)c(Oc3cc(Cl)cc(Cl)c3)c2)n1,IIIB,,MTT,,0.8 µM
CC(C)CN(C[C@@H](O)[C@H](Cc1ccccc1)NC(=O)[C@@H](NC(=O)[C@@H](C)NC(C)(C)c1ccccc1)C(C)(C)C)S(=O)(=O)c1ccc2ncccc2c1,RF,,,,<1 µM
Cc1nc2ccc(C(=O)NC(C)(C)CNC(=O)C[C@@]34CC[C@]5(C)[C@H](CC[C@@H]6[C@@]7(C)CC[C@H](OC(=O)[C@H]8C[C@@H](C(=O)O)C8(C)C)C(C)(C)[C@@H]7CC[C@]65C)C3=C(C(C)C)C(=O)C4)cc2[nH]1,92HT599,,p24 / ELISA,,<1 µM
O=C1Nc2ccc(Cl)cc2[C@@](C#CC2CC2)(C(F)(F)F)[C@H]1OCc1ccccn1,RF,,,,<0.14 µM
CC(C)[C@H](NC(=O)[C@H](Cc1ccccc1)C[C@H](O)[C@H](Cc1ccccc1)NC(=O)OC(C)(C)C)C(=O)N[C@@H](Cc1ccccc1)C(=O)N1CCOCC1,MN,,RT activity,,<0.03 µM
CC(C)C1=C2[C@H]3CC[C@@H]4[C@@]5(C)CC[C@H](OC(=O)[C@H]6C[C@@H](C(=O)O)C6(C)C)C(C)(C)[C@@H]5CC[C@@]4(C)[C@]3(C)CC[C@@]2([C@@H](O)CNC(=O)c2ccncc2)CC1=O,92HT599,,p24 / ELISA,,<1 µM
O=C(C(=O)N1CCN(C(=O)c2c(F)cccc2F)CC1)c1c[nH]c2ccccc12,BRU,,RT activity,,<10 µM
CC(C)C1=C2[C@H]3CC[C@@H]4[C@@]5(C)CC[C@H](OC(=O)[C@H]6C[C@@H](C(=O)O)C6(C)C)C(C)(C)[C@@H]5CC[C@@]4(C)[C@]3(C)CC[C@@]2([C@@H](O)CNCC(CCCCN)NC(=O)c2ccc(Cl)cc2)CC1=O,92HT599,,p24 / ELISA,,<1 µM
O=C(C(=O)N1CCN(C(=O)c2cccc(F)c2)CC1)c1c[nH]c2ccccc12,BRU,,RT activity,,<10 µM
O=C(NCc1ccc(F)cc1)c1nc2n(c(=O)c1O)CC1CCC2(NC(=O)C2CCCO2)CC1,NL4-3,(delta)nef,luciferase,pseudotyped,<0.01 µM
CC(C)CN(C[C@@H](O)[C@H](Cc1ccccc1)NC(=O)[C@@H](NC(=O)CNC(C)(C)c1ccc(F)cc1)C(C)(C)C)S(=O)(=O)c1ccc(N)cc1,RF,,,,<1 µM
COCCNC(=O)c1c(O)c2ncc(Cc3ccc(F)cc3)c3c2n(c1=O)C[C@H](CNC(C)(C)CO)O3,IIIB,,ATP / luminescence,,0.015 µM
CC(C)=CCOc1cc(Nc2ccccn2)ccc1C#N,IIIB,,cytopathic effect / MTT,,>0.29 µM
N#C/C=C/c1cccc(Oc2cc(Nc3ncnc(C4CC4)n3)ccc2C#N)c1,IIIB,,MTT,,0.021 µM
CC(C)C1=C2[C@H]3CC[C@@H]4[C@@]5(C)CC[C@H](OC(=O)[C@H]6C[C@@H](C(=O)O)C6(C)C)C(C)(C)[C@@H]5CC[C@@]4(C)[C@]3(C)CC[C@@]2(CC(=O)NCC(C)(C)NC(=O)c2cncnc2)CC1=O,92HT599,,p24 / ELISA,,<1 µM
O=C(C(=O)N1CCN(C(=O)c2ccccc2)CC1)c1c[nH]c2c(Cl)cccc12,BRU,,RT activity,,<10 µM
CC(C)CN(C[C@@H](O)[C@H](Cc1ccccc1)NC(=O)[C@@H](NC(=O)CNC(C)(C)c1cccc(F)c1)C(C)(C)C)S(=O)(=O)c1ccc(N)cc1,RF,,,,<1 µM
COc1ccnc(Nc2ccc(C#N)c(Sc3cccc(C)c3)c2)n1,IIIB,,MTT,,0.062 µM
O=C(C(=O)N1CCN(C(=O)c2ccccc2)CC1)c1c[nH]c2cccc(Cl)c12,BRU,,RT activity,,<10 µM
N#C/C=C/c1cc(F)cc(Oc2cc(Nc3nccc(C4CC4)n3)ccc2C#N)c1,IIIB,,MTT,,0.0085 µM
C=C[C@H]1[C@H](NC(C)=O)[C@H]1C(=O)NC12CCC(CC1)Cn1c2nc(C(=O)NCc2ccc(F)c(C)c2)c(O)c1=O,NL4-3,(delta)nef,luciferase,pseudotyped,<0.01 µM

The first 3 rows once more:

compound	strain	mutations	method	setting	result
O=C1Nc2ccc(Cl)cc2[C@@](C#CC2CC2)(C(F)(F)F)[C@H]1OCc1ccccc1F	RF				<0.14 µM
CC(C)[C@H](NC(=O)[C@H](Cc1ccc(O)cc1)C[C@H](O)[C@H](Cc1ccccc1)NC(=O)OC(C)(C)C)C(=O)N[C@@H](Cc1ccccc1)C(=O)N1CCOCC1	MN		RT activity		<0.3 µM
CC(C)CN(C[C@@H](O)[C@H](Cc1ccccc1)NC(=O)[C@@H](NC(=O)CCNC(C)(C)c1ccccc1)C(C)(C)C)S(=O)(=O)c1ccc(N)cc1	RF				<1 µM

ECn is the concentration giving n% inhibition of infection, replication or growth. Blank or dashed fields: not listed here.